Data from patent US20060275329A1 (Osaka Bioscience Institute, priority 2002, published 2006).

Tested on: recombinant TcOYE
Settings: 500 μM NADPH or NADH, argon-bubbled 0.1 M phosphate buffer pH 7.0

## CCCCOOCCCC
  Reduction of the compound by TcOYE (substrate specificity): reduced
